PubChem BioAssay AID624099, ICCB-Longwood – 2012
The whole screen tested about 21,000 reagents; this is a random part of them. 497 of them (2.4%) count as active. 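Higher z means weaker E2 silencing; only reporter increases were scored, and knock-downs that hurt cell survival may mask genuine repressor factors.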 Unmarked entries are inactive.

- Aim: 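Human genes that papillomavirus E2 requires to repress the HPV18 LCR promoter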 (primary screen)
- System: human C33A cervical carcinoma cells (HPV-negative) stably expressing BPV1 E2 and an HPV18 LCR luciferase reporter
- Knock-down reagent: siRNA pool against human genes, 40 nM
- Duration: 72 h
- Measurement: 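HPV18 LCR reporter light per well, converted to plate-wise z-scores that exclude control wells, and averaged over triplicate plates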
- Direction: mean z-score and z-score: higher = stronger reporter signal, weaker E2 silencing
- Rule for the call: 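Hit if mean z-score reaches 2 and two or more of three replicate z-scores also reach 2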

The first 4 entries, to show the layout:
gene	mean z-score	z-score, replicate A	z-score, replicate B	z-score, replicate C
TMT1B	0.15	0.56	-0.39	0.28
CLEC1A	-0.55	-0.8	-0.38	-0.46
CIART	-0.97	-0.82	-0.69	-1.4
SNRNP48	-0.24	-0.48	0.07	-0.33

The list itself, repeating the preview:
gene	mean z-score	z-score, replicate A	z-score, replicate B	z-score, replicate C
TMT1B	0.15	0.56	-0.39	0.28
CLEC1A	-0.55	-0.8	-0.38	-0.46
CIART	-0.97	-0.82	-0.69	-1.4
SNRNP48	-0.24	-0.48	0.07	-0.33
LINC01599	0.74	0.76	0.52	0.94
IQCF5	-0.76	-0.74	-0.8	-0.76
ATCAY	0.95	1.24	0.83	0.77
SLC35G5	0.54	0.64	0.61	0.36
ERF	0.37	0.46	0.21	0.44
UNC93A	-0.9	-0.62	-0.77	-1.3
PHF14	0.68	0.19	0.35	1.5
SLC25A24	-0.63	-0.84	-0.72	-0.34
SLC36A2	-0.7	-0.55	-0.63	-0.93
AXIN1	0.4	0.32	0.32	0.58
COQ9	0.48	0.58	0.1	0.77
PCDHGA8	0.77	0.53	0.94	0.83
TRIML2	0.07	0.29	-0.16	
ENGASE	-0.57	-0.49	-0.79	-0.42
TMEM35A	0.42	0.3	0.32	0.64
MESP1	-0.03	-0.24	-0.1	0.26
PPP1CB	-0.08	-0.24	0	0
ACOT9	0.12	0.09	-0.05	0.31
ASPHD2	-0.62	-1.04	-0.42	-0.4
LOC390801 (retired record)	0.69	0.44	0.89	0.75
ARG2	-0.38	-0.31	-0.2	-0.62
HOXA1	-0.14	-0.42	0.07	-0.09
SLC28A1	0.41	0.32	0.56	0.36
ARL14EP	0.13	0.07	0.21	0.1
HMGB3	-0.22	0.01	-0.39	-0.27
MEPE	-0.1	-0.52	0.06	0.16
LRRC37A6P	1.54	1.05	1.76	1.79
FZD8	-1.2	-0.9	-1.62	-1.09
HBZ	0.38	0.43	0.2	0.49
PSMA1	-1.26	-1.05	-1.45	-1.29
DLEU7	0.63	0.27	0.98	0.65
CD79B	-0.04	0.1	-0.19	-0.03
VCPIP1	-0.71	-0.92	-0.72	-0.49
PPP1R12C	0.48	0.51	0.49	0.44
IRF2BP1	-2.53	-2.57	-2.51	-2.52
